Results of unrelated studies side by side (data: NIAID ChemDB).

All rows: enzyme or target tests

Conditions beyond the fields shown may differ between rows. ICn is the concentration giving n% inhibition. An empty or dashed field is not shown. Inhibition is in % at the dose shown (toxicity tests: loss of growth or viability).

smiles	measure	dose	method	protein	organism	strain or isolate	value
Cc1cn([C@H]2C[C@H](O)[C@@H](CNS(=O)(=O)c3ccc(NS(=O)(=O)O)cc3)O2)c(=O)[nH]c1=O	IC50	-	-	Thymidine kinase	Herpes simplex virus 2	-	>200 µM
Nc1nc2c(ncn2[C@@H]2O[C@H](COP(=O)(O)OP(=O)(O)O)[C@@H](O)[C@H]2O)c(=O)[nH]1	IC50	-	-	DNA polymerase	Herpes simplex virus 1	-	<2000 µM
Nc1nc2c(ncn2CC[C@H](O)CO)c(=O)[nH]1	Ki	-	-	Thymidine kinase	Herpes simplex virus 1	-	1.69 µM
Cc1c(NC(=O)OC(C)(C)C)ccc2nc(NCC(Cc3ccccc3)C(=O)N(C)c3ccccn3)oc(=O)c12	IC50	-	-	Protease	Herpes simplex virus 1	-	1 µM
CCCCC(=O)NC[C@H]1O[C@@H](n2cc(I)c(=O)[nH]c2=O)C[C@@H]1O	IC50	-	-	Thymidine kinase	Herpes simplex virus 2	-	2 µM
CC[C@@H](N(C)C(=O)[C@@H](NC(=O)[C@@H](CC(=O)[C@@H](NC(=O)[C@H](C(C)C)N(C)C(=O)[C@@H](CC1CCCCC1)C(C)C)C(C)(C)C)CC(=O)C(C)(C)C)C1(C(=O)O)CCCC1)C(C)(C)C	IC50	-	-	Ribonucleotide reductase	Herpes simplex virus 1	-	0.123 µM
O=c1[nH]cnc2c1ncn2[C@H]1CC[C@@H](COP(=O)(O)O)O1	inhibition	2000 µM	-	DNA polymerase	Herpes simplex virus 1	-	83.6%
Cc1cn(C(CCO)OCCO)c(=O)[nH]c1=O	Ki	-	-	Thymidine kinase	Herpes simplex virus 1	-	219 µM
Nc1nc(-c2ccc(Cl)cc2)cs1	IC50	-	-	Primase	Herpes simplex virus 1	UL5/8/52	20 µM
CCN(C(=O)C(C)(C)Nc1nc2ccc(NC(=O)OC(C)(C)C)c(C)c2c(=O)o1)c1cccnc1	IC50	-	-	Protease	Herpes simplex virus 1	-	0.7 µM
Nc1nc(Cl)c2ncn([C@@H](CCO)OCCO)c2n1	Ki	-	-	Thymidine kinase	Herpes simplex virus 1	-	1777 µM
CN1CCN(n2cc(C(=O)NCc3ccc(Cl)cc3)c(=O)c3cc(CN4CCOCC4)ccc32)CC1	IC50	-	-	DNA polymerase	Herpes simplex virus 1	-	0.41 µM
O=c1[nH]c(=O)n([C@@H]2O[C@H](CO)[C@@H](O)[C@@H]2O)cc1/C=C/Br	inhibition	100 µM	-	Thymidine kinase	Herpes simplex virus 1	C42	84%
CC[C@H](C)[C@H](NC(=O)[C@H](C(C)C)N(C)C(=O)Cc1ccc(O)cc1)C(=O)NC(CC(=O)N(C)C)C(=O)N[C@@H](CC(=O)O)C(=O)N[C@@H](CC(C)C)C(=O)O	IC50	-	-	Ribonucleotide reductase	Herpes simplex virus 1	-	0.09 µM
Nn1cc(C(=O)NCc2ccc(Cl)cc2)c(=O)c2cc(CCCO)ccc21	IC50	-	-	DNA polymerase	Herpes simplex virus 1	-	0.22 µM
Nc1nc(-c2ccc(NC(=O)CCN(Cc3ccccc3)C(=O)C3Cc4ccccc4C3)cc2)cs1	IC50	-	-	Helicase-primase	Herpes simplex virus 1	F	15 µM
Cc1cn(C(CCO)SCCO)c(=O)[nH]c1=O	Ki	-	-	Thymidine kinase	Herpes simplex virus 1	-	256 µM
Cc1ccc(S(=O)(=O)N[C@@H](C)c2nc3ccsc3c(=O)o2)cc1	IC50	-	HPLC	HSV-2 protease	Herpes simplex virus 2	-	>10 µM
CC(C)[C@H](NC(=O)CCc1ccccc1)C(=O)N[C@H](C(=O)N[C@@H](CC(=O)N1CCCC1)C(=O)N[C@@H](CC(=O)O)C(=O)N[C@H](CO)CC(C)(C)C)C(C)C	IC50	-	binding	Ribonucleotide reductase	Herpes simplex virus 1	-	0.024 µM
CCN(C(=O)C1(Nc2nc3ccc(NC(=O)OC(C)(C)C)c(C)c3c(=O)o2)CCCC1)c1cccnc1	IC50	-	-	Protease	Herpes simplex virus 1	-	0.7 µM
S=C(N/N=C/c1ccccn1)NNC(=S)Nc1ccccc1Cl	IC50	-	-	Ribonucleotide reductase	Herpes simplex virus 1	-	<5 µM
Cc1cn([C@H]2C[C@H](O)[C@@H](CNS(=O)(=O)c3ccc([N+](=O)[O-])cc3)O2)c(=O)[nH]c1=O	IC50	-	-	Thymidine kinase	Herpes simplex virus 2	-	21 µM
C#C[C@H]1O[C@@H](n2cc(C)c(=O)[nH]c2=O)C[C@@H]1O	IC50	-	-	Thymidine kinase	Herpes simplex virus 1	SC16	5 µM
CC(C)(C)OC(=O)N(CCC(=O)Nc1ccc(-c2csc(N)n2)cc1)C1CCc2ccccc21	IC50	-	-	Helicase-primase	Herpes simplex virus 1	F	21 µM
O=c1[nH]c(=O)n([C@@H]2O[C@H](CO)[C@@H](O)[C@@H]2F)cc1I	Ki	-	-	DTHD kinase	Herpes simplex virus 2	333	1.54 µM
Nc1nc(N)c2nnn([C@@H]3O[C@H](COP(=O)(O)O)[C@@H](O)[C@H]3O)c2n1	IC50	-	-	DNA polymerase	Herpes simplex virus 1	-	<2000 µM
O=C(NCc1ccc(Cl)cc1)c1cn(N2CCOCC2)c2ccc(CC3CCOCC3)cc2c1=O	IC50	-	-	DNA polymerase	Herpes simplex virus 1	-	0.17 µM
C/C(=N\NC(=S)NNC(=S)Nc1ccc(C(C)(C)C)cc1)c1ccccn1	IC50	-	-	Ribonucleotide reductase	Herpes simplex virus 1	-	>5 µM
C/C=C/c1cn([C@@H]2O[C@H](CO)[C@@H](O)[C@@H]2O)c(=O)[nH]c1=O	inhibition	10 µM	-	Thymidine kinase	Herpes simplex virus 1	C42	40%
O=c1[nH]c(=O)n([C@@H]2O[C@H](CO)[C@@H](O)[C@@H]2F)cc1I	Ki	-	-	DNA polymerase	Herpes simplex virus 1	-	0.68 µM
O=c1[nH]c(=O)n([C@@H]2O[C@H](CO)[C@@H](O)[C@@H]2F)cc1/C=C/Br	inhibition	200 µM	-	Thymidine kinase	Herpes simplex virus 2	G	14%
Cc1c(NC(=O)OC(C)(C)C)ccc2nc(N(CC(C)(C)C)C(=O)N(C)CCc3ccccn3)oc(=O)c12	IC50	-	-	Protease	Herpes simplex virus 1	-	>20 µM
Cc1c(NC(=O)COCc2ccccc2)ccc2nc(N(C(C)C)C(C)C)oc(=O)c12	IC50	-	-	Protease	Herpes simplex virus 1	-	1.5 µM
CCOC(=O)/C=C/c1cn([C@@H]2O[C@H](CO)[C@@H](O)[C@@H]2F)c(=O)nc1N	inhibition	200 µM	-	Thymidine kinase	Herpes simplex virus 2	G	0%
C[C@H](NC(=O)OCc1ccccc1)C(=O)Nc1csc2c(=O)oc([C@H](C)NC(=O)OCc3ccccc3)nc12	IC50	-	HPLC	HSV-2 protease	Herpes simplex virus 2	-	10 µM
C/C=C/c1cn([C@H]2C[C@H](O)[C@@H](CO)O2)c(=O)[nH]c1=O	inhibition	100 µM	-	Thymidine kinase	Herpes simplex virus 1	91075	53%
Cc1cn([C@@H]2O[C@H](CO)[C@@H](O)[C@@H]2F)c(=O)nc1N	inhibition	200 µM	-	Thymidine kinase	Herpes simplex virus 2	G	0%
Cc1cn([C@@H]2O[C@H](CO)[C@@H](O)[C@@H]2F)c(=O)[nH]c1=O	Ki	-	-	DTHD kinase	Herpes simplex virus 2	333	2.5 µM
CC[C@@H](NC(=O)[C@@H](NC(=O)[C@H](CC(=O)N1CCCC1)NC(=O)[C@@H](NC(=O)NC1[C@H](C)CCC[C@@H]1C)C(C)(C)C)C1(C(=O)O)CCCC1)C(C)(C)C	IC50	-	radioligand binding / binding	Ribonucleotide reductase	Herpes simplex virus 2	-	<0.001 µM
O=c1[nH]c(=O)n([C@H]2C[C@H](O)[C@@H](CO)O2)cc1/C=C/Br	Ki	-	-	DTHD kinase	Herpes simplex virus 2	333	4.24 µM
C#Cc1cn([C@@H]2O[C@H](CO)[C@@H](O)[C@@H]2F)c(=O)nc1N	inhibition	200 µM	-	Thymidine kinase	Herpes simplex virus 2	G	13.7%
Nn1cc(C(=O)NCc2ccc(Cl)cc2)c(=O)c2cc(C#CCO)ccc21	IC50	-	-	DNA polymerase	Herpes simplex virus 1	-	0.31 µM
CC(=O)NC[C@H]1O[C@@H](n2cc(I)c(=O)[nH]c2=O)C[C@@H]1O	IC50	-	-	Thymidine kinase	Herpes simplex virus 2	-	78 µM
Cc1cccc(/C=N/NC(=S)NNC(=S)Nc2ccccc2Cl)n1	IC50	-	-	Ribonucleotide reductase	Herpes simplex virus 1	-	>5 µM
Nc1nc2c(ncn2COCCOP(=O)(O)OP(=O)(O)OP(=O)(O)O)c(=O)[nH]1	Ki	-	-	DNA polymerase	Herpes simplex virus 1	-	0.07 µM
NC1=NC2C(C=CN2CC(CO)CCOP(=O)(O)OP(=O)(O)OP(=O)(O)O)C(=O)N1	Ki	-	-	Polymerase	Herpes simplex virus 2	-	2.2 µM
Nc1nc2c(ncn2COCCOP(=O)(O)OP(=O)(O)OP(=O)(O)O)c(=O)[nH]1	Ki	-	-	DNA polymerase	Herpes simplex virus 2	-	0.003 µM
Nc1nc(-c2ccc(NC(=O)C(=O)N(Cc3ccccc3)Cc3ccccc3)cc2)cs1	IC50	-	-	Helicase-primase	Herpes simplex virus 1	KOS	1.2 µM
C[C@@H]1CCC[C@H](C)C1NC(=O)N[C@H](C(=O)C[C@@H](CC(=O)C(C)(C)C)C(=O)N[C@H](C(=O)N[C@H](CO)CC(C)(C)C)C1(C(=O)O)CCCC1)C(C)(C)C	IC50	-	radioligand binding / binding	Ribonucleotide reductase	Herpes simplex virus 1	-	<0.001 µM
Cc1cn([C@@H]2O[C@H](CO)[C@@H](O)[C@@H]2O)c(=O)[nH]c1=O	Ki	-	-	DTHD kinase	Herpes simplex virus 2	333	43.37 µM
O=c1[nH]c(=O)n([C@@H]2O[C@H](CO)[C@@H](O)[C@@H]2F)cc1/C=C/Br	Ki	-	-	DNA polymerase	Herpes simplex virus 1	-	0.67 µM
CCN(C(=O)N(C)CCc1cccnc1)c1nc2ccc(NC(=O)OC(C)(C)C)c(C)c2c(=O)o1	IC50	-	-	Protease	Herpes simplex virus 1	-	0.2 µM
Nc1nc(-c2ccc(NC(=O)CNCc3ccccc3)cc2)cs1	IC50	-	-	Primase	Herpes simplex virus 1	-	0.66 µM
CC[C@H](C)[C@H](NC(=O)[C@H](C(C)C)N(C)C(=O)CCc1ccccc1)C(=O)N[C@@H](CC(=O)N1CCCC1)C(=O)N[C@H](C(=O)N[C@@H](CC(C)C)C(=O)O)C(C)(C)C(=O)O	IC50	-	-	Ribonucleotide reductase	Herpes simplex virus 1	-	0.28 µM
CCc1cn([C@@H]2O[C@H](CO)[C@@H](O)[C@@H]2F)c(=O)nc1N	inhibition	200 µM	-	Thymidine kinase	Herpes simplex virus 2	G	0%
Cc1c(NC(=O)OC(C)(C)C)ccc2nc(N3CCCC3(OCc3ccccc3)C(=O)N(C)CCc3cccnc3)oc(=O)c12	IC50	-	-	Protease	Herpes simplex virus 1	-	>20 µM
Cc1cn([C@H]2C[C@H](O)[C@@H](CNS(=O)(=O)c3ccc(Br)cc3)O2)c(=O)[nH]c1=O	IC50	-	-	Thymidine kinase	Herpes simplex virus 2	-	13 µM
Nc1nc2c(ncn2[C@@H]2C[C@H](COP(=O)(O)OP(=O)(O)OP(=O)(O)O)[C@H]2CO)c(=O)[nH]1	Ki	-	-	DNA polymerase	Herpes simplex virus 1	KOS	0.004 µM
O=C(NCc1ccc(Cl)cc1)c1cn(N2CCCCC2)c2ccc(CN3CCOCC3)cc2c1=O	IC50	-	-	DNA polymerase	Herpes simplex virus 1	-	0.44 µM
O=C(NCc1ccc(Cl)cc1)c1c[nH]c2c(F)cccc2c1=O	Ki	-	-	Herpesvirus DNA polymerase	Herpes simplex virus 1	-	2.9 µM
Cc1c(NC(=O)OC(C)(C)C)ccc2nc(N(CCc3ccccc3)C(=O)N(C)CCc3ccncc3)oc(=O)c12	IC50	-	-	Protease	Herpes simplex virus 1	-	0.9 µM
C/C=C/c1cn([C@H]2C[C@H](O)[C@@H](CO)O2)c(=O)[nH]c1=O	Ki	-	-	Thymidine kinase	Herpes simplex virus 2	-	6.2 µM
Nc1ccn([C@@H]2O[C@H](COP(=O)(O)O)[C@@H](O)[C@H]2O)c(=O)n1	inhibition	2000 µM	-	DNA polymerase	Herpes simplex virus 1	-	89.7%